Percent effect of library compounds

Results are given as percent effect.
How 0% and 100% were set is not recorded. Most values in the screen are low, and negative values occur.
The entries come from a sample that favours strong results.
Two or more numbers in one place are separate tests of the same structure; such repeats can differ widely.
A dash means the value is not listed here; it may have been measured.

Mtb glucose medium: 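Phenotypic screen: M. tuberculosis growth, glucose 7H9 medium, 3 days; the read-out is not stated. Concentration: 50 µM. Higher reads as more growth inhibition (inferred: compounds with an IC50 in retests scored well above the rest). Of about 69,000 compounds tested this way, about 760 (1.1%) reached 50% or more in at least one test.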
Mtb cholesterol medium: 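Whole-cell growth test on Mycobacterium tuberculosis, read after 4 days in a medium based on cholesterol and the lipid DPPC; the read-out is not stated. Tested at 50 µM. Direction is inferred from retests: higher values go with more growth inhibition. About 69,000 compounds were tested under these conditions; 0.54% (about 370) showed 50% or more at least once.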

compound	Mtb glucose medium	Mtb cholesterol medium
O=C(Nc1nc(-c2ccccc2)ns1)N1CCN(C(=O)C2CC2)CC1	-	11.67 and 6.813
Cc1cc(NCCC(=O)NC(C)C)nc(-c2ccncc2)n1	68.7	-
CC(C)[C@@H]1CN(Cc2ccccc2C#N)C[C@H]1N(C)C	-33.58	-
CCOc1ccnc(N2CCCN(c3nc(C4CC4)ns3)CC2)n1	21.09	-
COc1cccc(C(=O)N2CCOC3(CCCN(C(C)=O)C3)C2)c1 (stereo not given)	-	101.2 and -8.513
COCCNc1nc2c(c(NCc3cnc(C)cn3)n1)CCNCC2	11.38	-
CCNC(=O)NC(=O)CNC(C)(C)c1ccc2c(c1)OCO2	-2.39 and -6.064	-
Cn1nnc(NCc2ccccc2OCc2ccc(Cl)cc2)n1	44.94	-
Cc1ncc(CN2CCCN(Cc3noc(C4CC4)n3)CC2)s1	-	-10.53
CCc1nccn1C1CCCN(C(=O)c2ccc3[nH]nnc3c2)C1 (stereo not given)	-	14.38
CC(C)OCc1noc(C2CCOC2)n1 (stereo not given)	-19.13	-36.66
[H][C@@]12C[C@@H](Oc3cccnc3)CN1CCN(C(=O)c1ccncc1)C2	-	2.04
O=S(=O)(Cc1cccc(F)c1)NCC(O)Cc1ccccc1 (stereo not given)	-5.417	-
NC(CC1CCCC1)c1ccc(Oc2ccccc2)cc1 (stereo not given)	111.5	105.7
CCCS(=O)(=O)NCC(O)c1c(Cl)cccc1Cl (stereo not given)	8.117 and 2.064	-
Cc1cn2c(n1)CCC(NC(=O)c1ccc(CS(C)(=O)=O)o1)C2 (stereo not given)	-	14.7
Cc1nc(C)c(CCN2CCC(Oc3ccccc3F)CC2)s1	56.83	-
CC(C)Oc1ccc(C(=O)NCc2ccnc(N3CCCC3)c2)cn1	56.63 and 45.38	53.13
O=C(NCCCN1CCCCC1)c1ccc(-n2ccc3ccccc32)s1	80.06	64.09
CCN(C(=O)CN1CCCC1c1ccc(OC)cc1)c1ccccc1C (stereo not given)	48.62	-
CN(Cc1cccc(-n2cccn2)c1)C(=O)c1cccc(N(C)C)c1	-20.58	0.8951
Cl.Cn1nc(C2CCCN(Cc3cc(F)ccc3F)C2)c2nccnc21 (stereo not given)	-	69.98
CCC(C)NC(=O)c1nnn(-c2ccc(Br)cc2)n1 (stereo not given)	35.4	-
O=C(CCc1ccsc1)NC1CCN(c2cccc(F)c2)CC1	26.2	-
Cc1ncccc1CNCC1COC2(CCCCC2)O1 (stereo not given)	12.97	3.21
Cc1ccc(C(=O)NCCCN(C)S(C)(=O)=O)cc1-n1cccc1	67.12	-
CCn1nc(C)c2nc(C(C)C)nc(N(C)Cc3ccco3)c21	34.95	23.33
CCn1nc(C)c2nc(C)nc(N(C)Cc3ccco3)c21	13.29	1.699
Cc1ccc(N2CC[C@H](OCC3CC3)[C@@H]2Cc2cccnc2)nn1.O=C(O)C(F)(F)F	-	-10.45
Cl.c1cc(CNCc2ccc(-n3cncn3)nc2)cc(OC2CCCC2)c1	49.48	57.55
Cc1cnc2c(S(=O)(=O)NCC3CCN(C4CC4)C3)cccc2c1 (stereo not given)	56.52	-
O=C(O)C(F)(F)F.O=C(O)C(F)(F)F.O=C1N(Cc2cccnc2)CCC12CCCN(c1ncccn1)C2 (stereo not given)	-	77.24
CCSc1ncc(CN2CC[C@@](O)(COC)C(C)(C)C2)cn1	-	18.47
O=S(=O)(NCCNc1ccc(-n2cccc2)nn1)c1ccccc1	95.63 and 70.35	84.59
Cc1cccc(CS(=O)(=O)c2nnc(N3CCOCC3)s2)c1	0.3422 and 5.678	5.296
Cc1cc(-c2noc(C3CCS(=O)(=O)C3)n2)ccc1F (stereo not given)	23.82 and 8.367	12.03
CN(C)c1cc(C(=O)N2CCN(c3nccs3)CC2)ccn1	15.3	-
NCCc1nc(N(Cc2nccs2)C2CC2)c2ccccc2n1	-22.94	-
CCn1cnnc1CN(C)Cc1nc(-c2cc(OC)ccc2F)oc1C	4.339	-
Cc1cccc(CN2CCCC3(CCN(C4CCSCC4)C3)C2=O)c1 (stereo not given)	54.73 and 53.15	-
COc1ccnc(N2CCCN(c3nc(C4CC4)ns3)CC2)n1	74.83	-

For reference, 4 entries once more:

compound,Mtb glucose medium,Mtb cholesterol medium
Cc1cn2c(n1)CCC(NC(=O)c1ccc(CS(C)(=O)=O)o1)C2 (stereo not given),-,14.7
O=C(NCCCN1CCCCC1)c1ccc(-n2ccc3ccccc32)s1,80.06,64.09
NCCc1nc(N(Cc2nccs2)C2CC2)c2ccccc2n1,-22.94,-
O=C(O)C(F)(F)F.O=C(O)C(F)(F)F.O=C1N(Cc2cccnc2)CCC12CCCN(c1ncccn1)C2 (stereo not given),-,77.24

Data taken from ChEMBL document CHEMBL3988442, “University of Dundee, Small-Polar-MMV Screening Library” (2021).